Measured values as given in patent publication US20220033460A1, “IDENTIFICATION AND USE OF T CELL EPITOPES IN DESIGNING DIAGNOSTIC AND THERAPEUTIC APPROACHES FOR COVID-19” (priority 2020, published 2022).

Test system: CD8+ T cells
Format: cell-based, human
Conditions: cells of the TCR clonotype specific for the epitope / HLA class I of the same line

Row | Molecule | No. of Cells
1 | TCR_102: TCR to … / A*02:01 (protein) TCR alpha: RKEVEQDPGPFNVPEGATVAFNCTYSNSASQSFFWYRQDCRKEPKLLMSVYSSGNEDGRFTAQLNRASQYISLLIRDSKLSDSATYLCVVNNNNDMRFGAGTRLTVKPNIQNPDPAVYQLRDSKSSDKSVCLFTDFDSQTNVSQSKDSDVYITDKTVLDMRSMDFKSNSAVAWSNKSDFACANAFNNSIIPEDTFFPSPESSCDVKLVEKSFETDTNLNFQNLSVIGFRILLLKVAGFNLLMTLRLWSS TCR beta: MGPGLLHWMALCLLGTGHGDAMVIQNPRYQVTQFGKPVTLSCSQTLNHNVMYWYQQKSSQAPKLLFHYYDKDFNNEADTPDNFQSRRPNTSFCFLDIRSPGLGDAAMYLCATTDLDSGELFFGEGSRLTVLEDLKNVFPPKVAVFEPSEAEISHTQKATLVCLATGFYPDHVELSWWVNGKEVHSGVSTDPQPLKEQPALNDSRYCLSSRLRVSATFWQNPRNHFRCQVQFYGLSENDEWTQDRAKPVTQIVSAEAWGRADCGFTSESYQQGVLSATILYEILLGKATLYAVLVSALVLMAMVKRKDSRG | 2
2 | TCR_103: TCR to … / A*02:01 (protein) TCR alpha: RKEVEQDPGPFNVPEGATVAFNCTYSNSASQSFFWYRQDCRKEPKLLMSVYSSGNEDGRFTAQLNRASQYISLLIRDSKLSDSATYLCVVNGNNDMRFGAGTRLTVKPNIQNPDPAVYQLRDSKSSDKSVCLFTDFDSQTNVSQSKDSDVYITDKTVLDMRSMDFKSNSAVAWSNKSDFACANAFNNSIIPEDTFFPSPESSCDVKLVEKSFETDTNLNFQNLSVIGFRILLLKVAGFNLLMTLRLWSS TCR beta: DAGVIQSPRHEVTEMGQEVTLRCKPISGHNSLFWYRQTMMRGLELLIYFNNNVPIDDSGMPEDRFSAKMPNASFSTLKIQPSEPRDSAVYFCARQDSNTGELFFGEGSRLTVLEDLKNVFPPKVAVFEPSEAEISHTQKATLVCLATGFYPDHVELSWWVNGKEVHSGVSTDPQPLKEQPALNDSRYCLSSRLRVSATFWQNPRNHFRCQVQFYGLSENDEWTQDRAKPVTQIVSAEAWGRADCGFTSESYQQGVLSATILYEILLGKATLYAVLVSALVLMAMVKRKDSRG | 2
3 | TCR_105: TCR to … / A*24:02 (protein) TCR alpha: QKEVEQDPGPLSVPEGAIVSLNCTYSNSAFQYFMWYRQYSRKGPELLMYTYSSGNKEDGRFTAQVDKSSKYISLFIRDSQPSDSATYLCAILQGAQKLVFGQGTRLTINPNIQNPDPAVYQLRDSKSSDKSVCLFTDFDSQTNVSQSKDSDVYITDKTVLDMRSMDFKSNSAVAWSNKSDFACANAFNNSIIPEDTFFPSPESSCDVKLVEKSFETDTNLNFQNLSVIGFRILLLKVAGFNLLMTLRLWSS TCR beta: GITQSPKYLFRKEGQNVTLSCEQNLNHDAMYWYRQDPGQGLRLIYYSQIVNDFQKGDIAEGYSVSREKKESFPLTVTSAQKNPTAFYLCASSLVSGELFFGEGSRLTVLEDLKNVFPPKVAVFEPSEAEISHTQKATLVCLATGFYPDHVELSWWVNGKEVHSGVSTDPQPLKEQPALNDSRYCLSSRLRVSATFWQNPRNHFRCQVQFYGLSENDEWTQDRAKPVTQIVSAEAWGRADCGFTSESYQQGVLSATILYEILLGKATLYAVLVSALVLMAMVKRKDSRG | 2
4 | TCR_106: TCR to … / A*02:01 (protein) TCR alpha: NSVTQMEGPVTLSEEAFLTINCTYTATGYPSLFWYVQYPGEGLQLLLKATKADDKGSNKGFEATYRKETTSFHLEKGSVQVSDSAVYFCALIGGSNDYKLSFGAGTTVTVRANIQNPDPAVYQLRDSKSSDKSVCLFTDFDSQTNVSQSKDSDVYITDKTVLDMRSMDFKSNSAVAWSNKSDFACANAFNNSIIPEDTFFPSPESSCDVKLVEKSFETDTNLNFQNLSVIGFRILLLKVAGFNLLMTLRLWSS TCR beta: EPEVTQTPSHQVTQMGQEVILRCVPISNHLYFYWYRQILGQKVEFLVSFYNNEISEKSEIFDDQFSVERPDGSNFTLKIRSTKLEDSAMYFCAKLVTGAVSGEQFFGPGTRLTVLEDLKNVFPPKVAVFEPSEAEISHTQKATLVCLATGFYPDHVELSWWVNGKEVHSGVSTDPQPLKEQPALNDSRYCLSSRLRVSATFWQNPRNHFRCQVQFYGLSENDEWTQDRAKPVTQIVSAEAWGRADCGFTSESYQQGVLSATILYEILLGKATLYAVLVSALVLMAMVKRKDSRG | 2
